Anti-infective test results gathered from many reports (values: NIAID ChemDB through PubChem).

Shared fields: growth or infection tests; agent: Aspergillus flavus; measure: zone

Lines come from different laboratories, so protocols vary. Blank or dashed fields: not listed here. Zones are inhibition diameters on agar.

smiles,tested at,method,strain or isolate,value
Clc1ccc(C2=NN(c3ccccc3)C(c3cn(-c4ccccc4)nc3-c3ccc(Br)cc3)C2)c(Cl)c1,500 µg/mL,,,1 mm
Cc1cccc(NCc2cc3ccccc3nc2Cl)c1,200 µg/mL,agar diffusion,MTCC 277,10.1 mm
O=C(CNC(=O)c1ccncc1)NN1C(=O)CSC1c1ccc(Cl)cc1,100 µg/mL,agar diffusion,,20 mm
CC(=Nc1cccc2cccc(N=C(C)c3c(O)ccc4c(C)cc(=O)oc34)c12)c1c(O)ccc2c(C)cc(=O)oc12,200 µg/mL,,MTCC 1883,16 mm
Nc1cc(=Nc2ccc(Br)cc2)n2nc(S(N)(=O)=O)sc2n1,5000 µg/mL,agar diffusion,,3 mm
N=C1C(=S)N(c2ccc(F)cc2)C(=O)N1c1cc(Cl)c(Cl)cc1Cl,5 mg/mL,agar diffusion / agar,,16 mm
Cc1ccc2c(c1)sc1nc(=O)cc(C(=O)NN)n12,5000 µg/mL,agar diffusion,,18 mm
Cc1[nH]c2ccc(OC(F)(F)F)cc2c1CNC(=O)CCc1cn(C)c2ccc(Cl)cc12,25 µg/mL,,NCIM 524,<10 mm
Cc1ccc2[nH]c3nc(NNC(=O)c4ccccc4C(=O)O)c4ccccc4c3c2c1,3.125 µg/mL,agar diffusion / visual reading,MTCC-1973,13 mm
O=c1[nH]c(-c2cc3ccccc3oc2=O)nc2c1C(c1ccccc1Cl)c1ccc3ccccc3c1O2,100 µg/mL,agar diffusion / agar,,12 mm
COc1ccc(-c2nn(-c3ccccc3)cc2C2CC(c3ccc(SC)cc3)=NN2c2ccccc2)cc1,1000 µg/mL,,,0 mm
Cc1ccc2nc3n4c(c5ccccc5c-3c2c1)NN=C(c1ccc(Cl)cc1)C4,25 µg/mL,agar diffusion / visual reading,MTCC-1973,7 mm
COc1ccc(C2SCC(=O)N2NC(=O)Cn2c(=O)c(C)nc3ccccc32)cc1OC,50 µg/mL,,,8 mm
N=C1C(=S)N(c2ccc(F)cc2)C(=O)N1c1ccc(Cl)cc1,5 mg/mL,agar diffusion / agar,,15 mm
Cn1c(=O)c(-c2[nH][nH]c(=O)c2N=Nc2ccc(Cl)cc2)c(O)c2ccccc21,1 mg/mL,agar diffusion,ATCC 28542,14 mm
Cn1cc(CCCNC(=O)CCc2c[nH]c3ccc(Cl)cc23)c2cc(Cl)ccc21,25 µg/mL,,NCIM 524,<10 mm
C(=C\CN1c2ccccc2Sc2cccnc21)/CN1c2ccccc2Sc2cccnc21,100 µg/mL,,MTCC 277,12 mm
Cc1nc2ccccc2n(CC(=O)NN2C(=O)CSC2c2ccccc2F)c1=O,50 µg/mL,,,8 mm
O=[N+]([O-])c1ccc(NCc2cc3ccccc3nc2Cl)cc1,200 µg/mL,agar diffusion,MTCC 277,8.33 mm
Cc1ccc2[nH]c3nc(-n4[nH]c(=O)c5ccccc5c4=O)c4ccccc4c3c2c1,12.5 µg/mL,agar diffusion / visual reading,MTCC-1973,9 mm
CN(C)c1ccc(C2SCC(=O)N2NC(=O)CNC(=O)c2ccncc2)cc1,50 µg/mL,agar diffusion,,11 mm
Cc1ccc2c(c1)C1(SCC(=O)N1c1c(C)n(C)n(-c3ccccc3)c1=O)C(=O)N2CCCCCCBr,100 µg/mL,agar diffusion,MTCC 277,0 mm
Clc1nc2ccccc2cc1CNc1ccc(Br)cc1,200 µg/mL,agar diffusion,MTCC 277,10.46 mm
[Cl][Cu+].[O-]c1cc2ccccc2cc1/C=N/NC(=S)N/N=C/c1cc2ccccc2cc1O,2 mg/mL,agar diffusion / agar,,0 mm
Cc1ccc2c(c1)C1(SCC(=O)N1c1c(C)n(C)n(-c3ccccc3)c1=O)C(=O)N2CCCCCCN1C(=O)C2(c3ccccc31)c1c(C)nn(-c3ccccc3)c1Oc1c2c(C)nn1-c1ccccc1,100 µg/mL,agar diffusion,MTCC 277,12 mm
COc1ccc(C2SCC(=O)N2NC(=O)Cn2c(=O)c(C)nc3ccccc32)cc1O,50 µg/mL,,,10 mm
Clc1ccc(C2=NN(c3ccccc3)C(c3cn(-c4ccccc4)nc3-c3ccccc3)C2)c(Cl)c1,1000 µg/mL,,,0 mm
COc1ccccc1C1SCC(=O)N1NC(=O)CNC(=O)c1ccncc1,100 µg/mL,agar diffusion,,15 mm
Cc1nc2ccccc2n(CC(=O)NN2C(=O)CSC2c2ccccc2Cl)c1=O,50 µg/mL,,,8 mm
Cc1ccc(C2=NNc3c4ccccc4c4c5cc(C)ccc5nc-4n3C2)cc1,3.125 µg/mL,agar diffusion / visual reading,MTCC-1973,8 mm
Nc1nc(COC(=O)c2ccc(Cl)cc2)cs1,25 µg/mL,,NCIM No. 524,<10 mm
CC(=O)Nc1ccccc1Sc1ncccc1[N+](=O)[O-],100 µg/mL,,MTCC 277,12 mm
O=C(CNC(=O)c1ccncc1)NN1C(=O)/C(=C/c2ccc(Cl)cc2)SC1c1ccc(Cl)cc1,50 µg/mL,agar diffusion,,17 mm
O=C(CCc1c[nH]c2ccc(Cl)cc12)NCc1c[nH]c2ccc(Cl)cc12,25 µg/mL,,NCIM 524,<10 mm
CN1C(=O)/C(=c2/[nH][nH]c(=O)/c2=C\c2ccc(Cl)cc2)C(=O)c2ccccc21,1 mg/mL,agar diffusion,ATCC 28542,7 mm
Cc1nc2ccccc2n(CC(=O)NN2C(=O)CSC2c2ccc(C(F)(F)F)cc2)c1=O,50 µg/mL,,,14 mm
N=C1C(=S)N(c2ccc(F)cc2)C(=O)N1c1ccc(Oc2ccc(N3C(=N)C(=S)N(c4ccc(F)cc4)C3=O)cc2)cc1,5 mg/mL,agar diffusion / agar,,15 mm
Clc1ccc(COC(Cn2ccnc2)c2ccc(Cl)cc2Cl)c(Cl)c1,30 µg/mL,agar diffusion,,23 mm
Cc1nn(-c2ccccc2)c2c1C1(C(=O)N(CCCCCCN3C(=O)C4(SCC(=O)N4c4c(C)n(C)n(-c5ccccc5)c4=O)c4ccccc43)c3ccccc31)c1c(C)nn(-c3ccccc3)c1O2,100 µg/mL,agar diffusion,MTCC 277,14 mm
Cn1c(=O)c(-c2[nH][nH]c(=O)c2/C=N/c2ncccn2)c(O)c2ccccc21,1 mg/mL,agar diffusion,ATCC 28542,5 mm
C[C@H]1[C@H](O)[C@@H](C)/C=C/C=C/C=C/C=C/C=C/C=C/C=C/[C@H](O[C@@H]2O[C@H](C)[C@@H](O)[C@H](N)[C@@H]2O)C[C@@H]2O[C@](O)(C[C@@H](O)C[C@@H](O)CC[C@H](O)[C@@H](O)C[C@@H](O)CC(=O)O[C@H]1C)C[C@H](O)[C@H]2C(=O)O,20000 µg/mL,,,16 mm
Cc1ccc2c(c1)C1(C(=O)N2CCCCCCN2C(=O)C3(SCC(=O)N3c3c(C)n(C)n(-c4ccccc4)c3=O)c3cc(C)ccc32)c2c(C)nn(-c3ccccc3)c2Oc2c1c(C)nn2-c1ccccc1,100 µg/mL,agar diffusion,MTCC 277,14 mm
COc1c(N2CC3CCCNC3C2)c(F)cc2c(=O)c(C(=O)[O-])cn(C3CC3)c12.[Cl][Zn+].c1c[nH]cn1,100 µM,agar diffusion,,0 mm
Cc1ccc(N2C(=N)C(=S)N(c3ccc(F)cc3)C2=O)cc1,5 mg/mL,agar diffusion / agar,,16 mm
Nc1nc(COC(=O)c2ccccc2[N+](=O)[O-])cs1,25 µg/mL,,NCIM No. 524,<10 mm
Cc1ccc(C2c3ccc4ccccc4c3Oc3nc(-c4cc5ccccc5oc4=O)[nH]c(=O)c32)cc1,150 µg/mL,agar diffusion / agar,,11 mm
CN1C(=O)/C(=c2/[nH][nH]c(=O)/c2=C\c2ccccn2)C(=O)c2ccccc21,1 mg/mL,agar diffusion,ATCC 28542,8 mm
Nc1nc(COC(=O)c2ccc(Br)cc2)cs1,25 µg/mL,,NCIM No. 524,<10 mm
O=C(CC1SC(=O)NC1=O)Nc1ccccc1C(=O)O,20000 µg/mL,,,<7 mm
CSc1ccc(C2=NN(c3ccccc3)C(c3cn(-c4ccccc4)nc3-c3ccc(Cl)cc3)C2)cc1,1000 µg/mL,,,3 mm
N=C1C(=S)N(c2ccc(F)cc2)C(=O)N1CCCCCCN1C(=N)C(=S)N(c2ccc(F)cc2)C1=O,5 mg/mL,agar diffusion / agar,,14 mm
O=C1NC(=O)C(Cc2nc3ccccc3s2)S1,20000 µg/mL,,,<7 mm
Fc1ccc2c(c1)Sc1cccnc1N2CCCCCCN1c2ccc(F)cc2Sc2cccnc21,100 µg/mL,,MTCC 277,12 mm
Nc1nc(COC(=O)C2(c3ccc(Cl)cc3)CC2)cs1,25 µg/mL,,NCIM No. 524,<10 mm
O=C(CNC(=O)c1ccncc1)NN1C(=O)/C(=C/c2ccccc2[N+](=O)[O-])SC1c1ccccc1[N+](=O)[O-],100 µg/mL,agar diffusion,,24 mm
Clc1ccc(COC(Cn2ccnc2)c2ccc(Cl)cc2Cl)c(Cl)c1,100 µg/mL,agar diffusion,,17 mm
Fc1ccc2c(c1)Sc1cccnc1N2CCCCN1c2ccc(F)cc2Sc2cccnc21,100 µg/mL,,MTCC 277,12 mm
Cc1cc(=O)n(-c2ccc(N=Cc3c(-c4c(O)c5ccccc5n(C)c4=O)[nH][nH]c3=O)cc2)n1C,1 mg/mL,agar diffusion,ATCC 28542,11 mm
Brc1ccc2c(c1)Sc1cccnc1N2CCCCN1c2ccc(Br)cc2Sc2cccnc21,100 µg/mL,,MTCC 277,10 mm
Cc1nn(-c2ccccc2)c2c1C1(C(=O)N(CCCCCCN3C(=O)C4(SCC(=O)N4c4c(C)n(C)n(-c5ccccc5)c4=O)c4cc(F)ccc43)c3ccccc31)c1c(C)nn(-c3ccccc3)c1O2,100 µg/mL,agar diffusion,MTCC 277,14 mm
CN(Cc1cc2ccccc2nc1Cl)c1ccc(Cl)cc1,200 µg/mL,agar diffusion,MTCC 277,17.73 mm
COc1cc(C2c3ccc4ccccc4c3Oc3nc(-c4cc5ccccc5oc4=O)[nH]c(=O)c32)ccc1O,150 µg/mL,agar diffusion / agar,,16 mm
Nc1nc(COC(=O)c2ccccc2)cs1,25 µg/mL,,NCIM No. 524,<10 mm
Cc1ccc2c(c1)C1(C(=O)N2CCCCCCN2C(=O)C3(SCC(=O)N3c3c(C)n(C)n(-c4ccccc4)c3=O)c3ccccc32)c2c(C)nn(-c3ccccc3)c2Oc2c1c(C)nn2-c1ccccc1,100 µg/mL,agar diffusion,MTCC 277,15 mm
COc1c(N2CC3CCCNC3C2)c(F)cc2c(=O)c(C(=O)[O-])cn(C3CC3)c12.COc1c(N2CC3CCCNC3C2)c(F)cc2c(=O)c(C(=O)[O-])cn(C3CC3)c12.[Cl][Cu+].[Cl][Cu+].c1c[nH]cn1.c1c[nH]cn1,100 µM,agar diffusion,,0 mm
O=c1[nH]c(-c2cc3ccccc3oc2=O)nc2c1C(c1ccc(Cl)cc1)c1ccc3ccccc3c1O2,150 µg/mL,agar diffusion / agar,,15 mm